Literature values in US20210322464A1, “METHOD OF TREATING AND PREVENTING CORONAVIRUS DISEASE 19 (COVID-19) USING A SELENIUM ADMINISTRATION” (priority 2020, published 2021).

Conditions: humans; cited from earlier work

[Se] [Selenium]
whole blood Selenium levels at which symptoms of toxicity have been reported: above 1,000 μg/L
